# Assay results published in patent US4346087A, “Antibacterial surface active agent containing azaalkenelactam” (priority 1979, dated 1982).
# Experiments:
# [1] = Metal corrosion inhibition in brake fluid A, aluminum; details: 100°±2° C., 120±2 hours, blank +0.07
# [2] = Metal corrosion inhibition in brake fluid A, cast iron; details: 100°±2° C., 120±2 hours, blank -0.14
# [3] = Metal corrosion inhibition in brake fluid A, copper; details: 100°±2° C., 120±2 hours, blank +0.18
# [4] = Metal corrosion inhibition in brake fluid A, tin-plate; details: 100°±2° C., 120±2 hours, blank -0.15
# [5] = Metal corrosion inhibition in brake fluid A, steel; details: 100°±2° C., 120±2 hours, blank -0.20
# [6] = Metal corrosion inhibition in brake fluid A, brass; details: 100°±2° C., 120±2 hours, blank -0.20
# [7] = Table 4, azaalkenelactams […] by weight in brake fluid A
# [8] = Table 5, carboxylate derivatives […] by weight in brake fluid A
Compound,"Weight change, aluminum [1, 7]","Weight change, cast iron [2, 7]","Weight change, copper [3, 7]","Weight change, tin-plate [4, 7]","Weight change, steel [5, 7]","Weight change, brass [6, 7]","Weight change, aluminum [1, 8]","Weight change, cast iron [2, 8]","Weight change, copper [3, 8]","Weight change, tin-plate [4, 8]","Weight change, steel [5, 8]","Weight change, brass [6, 8]"
"CCCCCCCCCCCCCCNCCN1CCN=CC(C)(C)C1=O [Example 58, 4-tetradecylaminoethyl-6,6-dimethyl-3-hydro-2H-1,4-diazepin-5-one]",0 mg/cm^2,-0.01 mg/cm^2,+0.01 mg/cm^2,0 mg/cm^2,-0.01 mg/cm^2,-0.01 mg/cm^2,–,–,–,–,–,–
CCCCCCCCOCCCN1CC[N+](CC(=O)[O-])=C(C)CC1=O [4-octoxypropyl-7-methyl-1-azonia-4-azacyclohept-7-en-5-one-1-acetate],–,–,–,–,–,–,+0.01 mg/cm^2,0 mg/cm^2,+0.01 mg/cm^2,-0.02 mg/cm^2,-0.03 mg/cm^2,-0.01 mg/cm^2
"4-(2-hydroxyhexadecyl)aminoethyl-6-methyl-3,6-dihydro-2H-1,4-diazepin-5-one [Example 41]",0 mg/cm^2,-0.01 mg/cm^2,+0.01 mg/cm^2,-0.01 mg/cm^2,-0.01 mg/cm^2,0 mg/cm^2,–,–,–,–,–,–
"CCCCCCCCOCCCN1CC[N+](CC(=O)[O-])=CC(C)(C)C1=O [4-oxtoxypropyl-6,6-dimethyl-1-azonia-4-azacyclohept-7-en-5-one-1-acetate]",–,–,–,–,–,–,+0.01 mg/cm^2,-0.03 mg/cm^2,0 mg/cm^2,-0.02 mg/cm^2,-0.02 mg/cm^2,-0.01 mg/cm^2
"CCCCCCCC(=O)NCCN1CCN=C(C)CC1=O [Example 23, 4-octamidoethyl-7-methyl-3,6-dihydro-2H-1,4-diazepin-5-one]",0 mg/cm^2,-0.01 mg/cm^2,+0.03 mg/cm^2,0 mg/cm^2,-0.01 mg/cm^2,-0.03 mg/cm^2,–,–,–,–,–,–
CCCCCCC(O)CC=CCCCCCCCC(=O)OC(C)CN1CCC[N+](CC(=O)[O-])=C(C)CC1=O (stereo not drawn),–,–,–,–,–,–,0 mg/cm^2,-0.01 mg/cm^2,-0.01 mg/cm^2,-0.03 mg/cm^2,-0.01 mg/cm^2,-0.01 mg/cm^2
CCCCCCCCCCCCCCCCN1CC[N+](CC(=O)[O-])=C(C)CC1=O [4-hexadecyl-7-methyl-1-azonia-4-azacyclohept-7-en-5-one-1-acetate],–,–,–,–,–,–,0 mg/cm^2,-0.01 mg/cm^2,0 mg/cm^2,-0.01 mg/cm^2,-0.02 mg/cm^2,0 mg/cm^2
CCCCCCCCCCCCN1CCC[N+](CC(=O)[O-])=C(C)CC1=O [1-dodecyl-4-methyl-1-aza-5-azoniacyclooct-4-en-2-one-5-acetate],–,–,–,–,–,–,+0.01 mg/cm^2,0 mg/cm^2,0 mg/cm^2,-0.01 mg/cm^2,-0.01 mg/cm^2,0 mg/cm^2
"CCCCCCCCCCCCCCC(O)CNCCN1CCCN=CC(C)(C)C1=O (stereo not drawn) [Example 61, 1-(2-hydroxyhexadecyl)aminoethyl-3,3-dimethyl-6,7,8-trihydro-1,5-diazocin-5-one]",+0.01 mg/cm^2,-0.01 mg/cm^2,+0.01 mg/cm^2,0 mg/cm^2,-0.01 mg/cm^2,0 mg/cm^2,–,–,–,–,–,–
CCCCCCCCCCCCCCCCCCCCC(O)CNCCNCCN1CCC[N+](CC(=O)[O-])=C(C)CC1=O (stereo not drawn) [1-(2-hydroxy)docosylaminoethylaminoethyl-4-methyl-1-aza-5-azoniacyclooct-4-en-2-one-5-acetate],–,–,–,–,–,–,+0.01 mg/cm^2,-0.02 mg/cm^2,-0.01 mg/cm^2,-0.03 mg/cm^2,-0.03 mg/cm^2,-0.02 mg/cm^2
CCCCCCCC(=O)NCCN1CC[N+](C(C)C(=O)[O-])=CCCC1=O (stereo not drawn) [4-octamidoethyl-4-aza-1-azoniacyclooct-8-en-5-one-1-propionate],–,–,–,–,–,–,+0.02 mg/cm^2,-0.03 mg/cm^2,-0.02 mg/cm^2,-0.02 mg/cm^2,-0.03 mg/cm^2,-0.01 mg/cm^2
CCCCCCCCCCCCNCCNCCN1CC[N+](CC(=O)[O-])=C(C)CC1=O [4-dodecylaminoethylaminoethyl-1-azonia-4-azacyclohept-7-en-5-one-1-acetate],–,–,–,–,–,–,+0.02 mg/cm^2,-0.03 mg/cm^2,0 mg/cm^2,-0.02 mg/cm^2,-0.03 mg/cm^2,-0.01 mg/cm^2
"CCCCCCCC/C=C\CCCCCCCC(=O)NCCN1CCN=C(C)CC1=O [Example 10, 4-oleamidoethyl-7-methyl-3,6-dihydro-2H-1,4-diazepin-5-one]",0 mg/cm^2,0 mg/cm^2,+0.01 mg/cm^2,-0.02 mg/cm^2,-0.01 mg/cm^2,-0.02 mg/cm^2,–,–,–,–,–,–
"4-octoxy(2-hydroxy)propyl-7-methyl-3,6-dihydro-2H-1,4-diazepin-5-one [Example 31]",+0.01 mg/cm^2,-0.01 mg/cm^2,+0.01 mg/cm^2,-0.01 mg/cm^2,-0.02 mg/cm^2,-0.03 mg/cm^2,–,–,–,–,–,–
CCCCCCCCCCCCCCNCCN1CC[N+](C(C)C(=O)[O-])=CCC(C)C1=O (stereo not drawn),–,–,–,–,–,–,0 mg/cm^2,-0.02 mg/cm^2,-0.02 mg/cm^2,-0.02 mg/cm^2,-0.02 mg/cm^2,-0.02 mg/cm^2
CCCCCCCCCCCCC(O)CN1CCC[N+](CC(=O)[O-])=C(C)CC1=O (stereo not drawn) [1-(2-hydroxy)tetradecyl-4-methyl-1-aza-5-azoniacyclooct-4-en-2-one-5-acetate],–,–,–,–,–,–,+0.02 mg/cm^2,-0.02 mg/cm^2,-0.02 mg/cm^2,-0.02 mg/cm^2,-0.03 mg/cm^2,-0.02 mg/cm^2
"CCCCCCCCCCCC(=O)NCCN1CCN=CC(C)C1=O (stereo not drawn) [Example 46, 4-lauramidoethyl-6-methyl-3,6-dihydro-2H-1,4-diazepin-5-one]",+0.01 mg/cm^2,-0.02 mg/cm^2,+0.01 mg/cm^2,0 mg/cm^2,-0.01 mg/cm^2,-0.01 mg/cm^2,–,–,–,–,–,–
"CCCCCCCCCCC(O)CN1CCN=C(C)CC1=O (stereo not drawn) [Example 26, 4-(2-hydroxy)dodecyl-7-methyl-3,6-dihydro-2H-1,4-diazepin-5-one]",+0.01 mg/cm^2,-0.02 mg/cm^2,+0.03 mg/cm^2,0 mg/cm^2,-0.01 mg/cm^2,-0.01 mg/cm^2,–,–,–,–,–,–
CCCCCCCCCCCC(=O)NCCN1CC[N+](CC(=O)[O-])=CC(C)C1=O (stereo not drawn) [4-lauramidoethyl-6-methyl-1-azonia-4-azacyclohept-7-en-5-one-1-acetate],–,–,–,–,–,–,+0.02 mg/cm^2,-0.02 mg/cm^2,-0.01 mg/cm^2,-0.03 mg/cm^2,-0.03 mg/cm^2,0 mg/cm^2
CCCCCCCCc1ccc(OCCOC(C)COC(C)CN2CC[N+](CC(=O)[O-])=C(C)CC2=O)cc1 (stereo not drawn),–,–,–,–,–,–,0 mg/cm^2,-0.01 mg/cm^2,0 mg/cm^2,-0.02 mg/cm^2,-0.01 mg/cm^2,0 mg/cm^2
"CCCCCCCCCCCCCCNCCN1CCN=CC(C)C1=O (stereo not drawn) [Example 40, 4-tetradecylaminoethyl-6-methyl-3,6-dihydro-2H-1,4-diazepin-5-one]",+0.01 mg/cm^2,-0.01 mg/cm^2,0 mg/cm^2,-0.01 mg/cm^2,-0.01 mg/cm^2,0 mg/cm^2,–,–,–,–,–,–
CCCCCCCCCCCCN1CCC[N+](CC(=O)[O-])=CC(C)C1=O (stereo not drawn) [1-dodecyl-3-methyl-1-aza-5-azoniacyclooct-4-en-2-one-5-acetate],–,–,–,–,–,–,0 mg/cm^2,-0.03 mg/cm^2,-0.01 mg/cm^2,-0.03 mg/cm^2,-0.01 mg/cm^2,-0.01 mg/cm^2
